Experimental data published in patent publication US6626122B2, “Deactivatable biocides in ballast water” (Chevron U.S.A. Inc, priority 2001, dated 2003).

Tested on: bacterial inoculum
Test: Test for rapidly biodegradable hydrocarbonaceous products (visual growth of microorganisms on the product)
Format: cell-based, alkane degrading organisms
Conditions: 10 μl inoculum

CCCCCCCCCCCCCCCC [n-C16]
growth (at 2 days): no growth
growth (at 6 days): growth
